Anti-infective test results gathered from many reports (values: NIAID ChemDB through PubChem).

Common to all: growth or infection tests; agent: HIV-1; cell line: MT-4; endpoint: EC50

Blank or dashed fields: not listed here. ECn: concentration that inhibits the pathogen or its effect by n%. Conditions beyond the fields shown may differ between rows.

smiles | strain | changes | method | value
CC(C)=CCN1Cc2cc(Cl)cc3[nH]c(=S)n(c23)C[C@@H]1C | MFE30(RT-P236L) | RT-P236L | antigen | ~0.03 µM
Cc1ccnc2c1NC(=O)c1cccnc1N2C1CC1 | NL4-3 | - | cytopathic effect | 0.06 µM
Clc1cc(CN2CCCNCCNCCCNCC2)c(Cl)cc1CN1CCCNCCNCCCNCC1 | NL4-3 | AMD3100-resistant | cytopathic effect / MTT | 0.68 µg/mL
Cc1cc(C#Cc2cccc(N)c2)cc(C)c1Oc1ccnc(NC2CCN(c3cccc(C(N)=O)c3)CC2)n1 | IIIB | RES056 | MTT | >1.063 µM
O=C1N(Cc2ccc(CO)cc2)[C@H](Cc2ccccc2)[C@H](O)[C@@H](O)[C@@H](Cc2ccccc2)N1Cc1ccc(CO)cc1 | NL4-3 | PR-L10R M46I | p24 | <0.2 µM
Cc1cc(C#Cc2ccccn2)cc(C)c1Oc1ccnc(Nc2ccc(C#N)cc2)n1 | IIIB | F227L + V106A | MTT | >2.068 µM
COCCN1C(=O)c2cccn2S(=O)(=O)c2ccccc21 | IIIB | - | cytopathic effect / MTT | 51 µM
Cc1ccc(/C=C/c2cc(C)c(Oc3ccnc(Nc4ccc(C#N)cc4)n3)c(C)c2)cc1 | IIIB | Y181C | MTT | 0.671 µM
CCCN1C(=O)c2cccn2S(=O)(=O)c2ccc(Cl)cc21 | IIIB | - | cytopathic effect / MTT | >300 µM
Cc1cc(C#Cc2cccc(N)c2)cc(C)c1Oc1ccnc(NC2CCN(Cc3cccc(C(N)=O)c3)CC2)n1 | IIIB | - | MTT | 0.007 µM
COc1ccc2c(c1)N(C(=O)OC(C)C)[C@@H](CSC)C(=S)N2 | Recombinant mutant | RT-A98S | cytopathic effect / MTT | 0.00066 µM
C1CNCCNCCCN(CCCN2CCCNCCNCCCNCC2)CCNC1 | AOM | - | cytopathic effect / MTT | 0.19 µg/mL
c1cc(CNCCN2CCCC2)ccc1CNCCN1CCCC1 | - | - | MTT | 30.9 µM
CN1C(=O)c2cccn2S(=O)(=O)c2ccc(Cl)cc21 | IIIB | - | cytopathic effect / MTT | 20 µM
COc1c(CC=C(C)C)c(O)cc2oc(=O)c(-c3ccc(O)cc3O)cc12 | IIIB | - | MTT | >20 µg/mL
COc1nc(=O)[nH]c2c1C(c1ccc([N+](=O)[O-])cc1)c1c(OC)nc(=O)[nH]c1O2 | L1 | - | cytopathic effect | >313 µM
Cc1cc(C#Cc2cccc(N)c2)cc(C)c1Oc1ccnc(NC2CCN(Cc3ccc(C(N)=O)cc3)CC2)n1 | IIIB | F227L + V106A | MTT | >0.198 µM
CC(C)(C)NC(=O)[C@@H]1C[C@@H]2CCCC[C@@H]2CN1C[C@@H](O)[C@H](Cc1ccccc1)NC(=O)[C@H](CC(N)=O)NC(=O)c1ccc2ccccc2n1 | NL4-3 | PR-I84V | p24 | <0.09 µM
CC(C)=CCc1c(CCCc2ccc(O)cc2O)cc(O)c(O)c1CC=C(C)C | IIIB | - | cytopathic effect / MTT | >20 µg/mL
CC(C)Nc1cccnc1N1CCN(C(=O)c2cc3cc(NS(C)(=O)=O)ccc3[nH]2)CC1 | LZ-07.96 (HXB2 RT T69N L74I Q151M M184V) | RT-T69N L74I Q151M M184V | cytopathic effect | 0.05 µM
O=C(Cc1ccc(CNCCCN2CCCCC2)cc1)NCCCN1CCCCC1 | - | - | MTT | 2.539 µM
Cc1cn([C@H]2C[C@H](N=[N+]=[N-])[C@@H](CO)O2)c(=O)[nH]c1=O | BI-03.97 (HXB2(RT-A62V S68G T69D V75I F77L F116Y Q151M)) | RT-A62V S68G T69D V75I F77L F116Y Q151M | cytopathic effect | >5 µM
Cc1ccnc2c1NC(=O)c1cccnc1N2C1CC1 | - | - | - | <0.4 µM
COc1ccc(S(=O)(=O)N(CC(C)C)C[C@@H](O)[C@H](Cc2ccccc2)NC(=O)O[C@H]2CCO[C@H]3OC[C@H](O)[C@H]32)cc1 | NL4-3 | L10I I15V K20R L24I V32I M36I M46I L63P K70Q V82A I84V L89M | p24 / luminescence | 0.046 µM
CCOC(=O)C1c2cccn2Sc2ccccc2N1C(=O)CCl | IIIB | - | cytopathic effect / MTT | 176 µM
CC/C(C)=C/Cc1c(O)cc2oc(-c3ccc(O)c(O)c3)cc(=O)c2c1O | IIIB | - | cytopathic effect / MTT | >100 µg/mL
CC(=O)Oc1ccc(/C=C/C(=O)O[C@@H](C(=O)O)[C@@H](OC(=O)/C=C/c2ccc(OC(C)=O)c(OC(C)=O)c2)C(=O)O)cc1OC(C)=O | NL4-3 | AR117-resistant | - | >74 µM
CCCN1C(=O)c2cccn2S(=O)(=O)c2ccccc21 | IIIB | - | cytopathic effect / MTT | 26 µM
COc1ccc(C2CC(=O)c3c(O)cc(O)cc3O2)c(CC=C(C)C)c1OC | IIIB | - | MTT | 74 µg/mL
CC(C)CN(C[C@@H](O)[C@H](Cc1ccccc1)NC(=O)O[C@H]1CCOC1)S(=O)(=O)c1ccc(N)cc1 | NL4-3 | L10I I15V K20R L24I V32I M36I M46I L63P K70Q V82A I84V L89M | p24 / luminescence | >1 µM
Cc1cc(C#Cc2ccc(C(=O)O)cc2)cc(C)c1Oc1ccnc(Nc2ccc(C#N)cc2)n1 | IIIB | E138K | MTT | 0.244 µM
O=C(O)c1oc2cc(O)cc(O)c2c(=O)c1Oc1ccc(OCc2ccccc2)cc1OCc1ccccc1 | IIIB | - | cytopathic effect / MTT | >25 µg/mL
CC1CCCCN1CCCNCc1ccc(CC(=O)NCCCN2CCCCC2)cc1 | - | - | MTT | 1.39 µM
COCOc1cc(OCC=C(C)C)c2c(=O)c(OCOC)c(-c3ccc(OCOC)c(OCOC)c3)oc2c1 | IIIB | - | cytopathic effect / MTT | 66.7 µg/mL
CCOC(=O)C1c2cccn2S(=O)(=O)c2ccccc2N1c1ccc(C)cc1 | IIIB | - | cytopathic effect / MTT | >300 µM
c1cc(CN2CCCNCCCNCCNCCC2)cc(CN2CCCNCCCNCCNCCC2)c1 | RF | - | cytopathic effect / MTT | 1.94 µg/mL
COc1cc2oc(-c3ccc(O)cc3O)cc2c(OC)c1CC=C(C)C | IIIB | - | MTT | >50 µg/mL
O=c1[nH]c2c(c(=O)[nH]1)C(c1ccc(I)cc1)c1c([nH]c(=O)[nH]c1=O)O2 | IIIB | - | cytopathic effect | >276 µM
CN[C@H]1CO[C@@H]2OCC[C@H](OC(=O)N[C@@H](Cc3ccccc3)[C@H](O)CN(CC(C)C)S(=O)(=O)c3ccc4nc(NC5CC5)sc4c3)[C@@H]21 | NL4-3 | - | p24 / luminescence | 0.0035 µM
Cc1cc(C#Cc2cccc(N)c2)cc(C)c1Oc1ccnc(NC2CCN(Cc3ccc(C#N)cc3)CC2)n1 | IIIB | Y188L | MTT | >0.261 µM
CC(C)=CCN1Cc2cc(Cl)cc3[nH]c(=S)n(c23)C[C@@H]1C | IIIB | RT-E138K | cytopathic effect / MTT | 0.464 µM
CC(C)CN(C[C@@H](O)[C@H](Cc1ccccc1)NC(=O)O[C@H]1CCO[C@H]2OCC[C@H]21)S(=O)(=O)c1ccc2nc(NC3CC3)sc2c1 | NL4-3 | L10I N37D G48V I54V L63P G73C I84V L90M | p24 / luminescence | 0.046 µM
CC(C)CN(C[C@@H](O)[C@H](Cc1ccccc1)NC(=O)[C@H](CC(N)=O)NC(=O)c1ccc2ccccc2n1)C(=O)NC(C)(C)C | NL4-3 | PR-I84V | p24 | <0.4 µM
Nc1ccn([C@H]2CC[C@@H](CO)O2)c(=O)n1 | IIIB Recombinant wild type | - | cytopathic effect / MTT | 0.078 µM
CC1CCN(CCCN2c3ccccc3NC(c3ccccc3)c3cccn32)CC1 | IIIB | - | cytopathic effect / MTT | >47 µM
Cc1cn([C@@H]2O[C@H](CO[Si](C)(C)C(C)(C)C)C3(OS(=O)(=O)C=C3N)[C@H]2O[Si](C)(C)C(C)(C)C)c(=O)n(C)c1=O | IIIB | RT-E138K | cytopathic effect / MTT | 1.846 µM
Nc1ccn([C@H]2CC[C@@H](CO)O2)c(=O)n1 | AJ-05.93 (HXB2(RT-L74V)) | RT-L74V | cytopathic effect | 3.89 µM
CCN[C@H]1CO[C@@H]2OCC[C@H](OC(=O)N[C@@H](Cc3cccc(OC)c3)[C@H](O)CN(CC(C)C)S(=O)(=O)c3ccc4nc(NC(C)C)sc4c3)[C@@H]21 | NL4-3 | L10I N37D G48V I54V L63P G73C I84V L90M | p24 / luminescence | 0.0049 µM
CSc1nc2c(c(=O)[nH]1)C(c1ccc([N+](=O)[O-])cc1)c1c(nc(SC)[nH]c1=O)O2 | IIIB | - | cytopathic effect | >188.9 µM
CC(=O)Oc1ccc(/C=C/C(=O)O[C@@H](C(=O)O)[C@@H](OC(=O)/C=C/c2ccc(OC(C)=O)c(OC(C)=O)c2)C(=O)O)cc1OC(C)=O | NL4-3 | AR177-resistant | cytopathic effect / MTT | >74 µM
CC(=O)c1ccc(C)cc1NC(C(N)=O)c1c(Cl)cccc1Cl | Recombinant mutant | RT-A98S | cytopathic effect / MTT | 0.014 µM
CC(C)=CCc1c(O)cc(O)c2c1OC(c1ccc(O)c(O)c1)CC2=O | IIIB | - | MTT | >100 µg/mL
Cc1cc(C#Cc2ccccc2)cc(C)c1Oc1ccnc(Nc2ccc(C#N)cc2)n1 | IIIB | Y181C | MTT | 0.574 µM
CCOC(=O)C1Nc2ccccc2Sn2cccc21 | IIIB | - | cytopathic effect / MTT | >10 µM
c1ccc2c(CN3CCCNCCNCCCNCC3)cc(CN3CCCNCCNCCCNCC3)cc2c1 | AOM | - | cytopathic effect / MTT | 0.22 µg/mL
Cc1cc(C#Cc2ccc(C(F)(F)F)cc2)cc(C)c1Oc1ccnc(Nc2ccc(C#N)cc2)n1 | IIIB | F227L + V106A | MTT | >7.353 µM
O=C(Cc1ccc(CC(=O)NCCCN2CCCCC2)cc1)NCCCN1CCCCC1 | - | - | MTT | >282 µM
CO[P@](=O)(c1cc(C)cc(/C=C/C#N)c1)c1c(C(N)=O)[nH]c2ccc(Cl)cc12 | NL4-3 | - | - | 0.0017 µM
CC1(C)C=Cc2c(ccc(-c3coc4cc(O)cc(O)c4c3=O)c2O)O1 | IIIB | - | MTT | >20 µg/mL

Repeating the final 7 entries:

smiles	strain	changes	method	value
Cc1cc(C#Cc2ccccc2)cc(C)c1Oc1ccnc(Nc2ccc(C#N)cc2)n1	IIIB	Y181C	MTT	0.574 µM
CCOC(=O)C1Nc2ccccc2Sn2cccc21	IIIB	-	cytopathic effect / MTT	>10 µM
c1ccc2c(CN3CCCNCCNCCCNCC3)cc(CN3CCCNCCNCCCNCC3)cc2c1	AOM	-	cytopathic effect / MTT	0.22 µg/mL
Cc1cc(C#Cc2ccc(C(F)(F)F)cc2)cc(C)c1Oc1ccnc(Nc2ccc(C#N)cc2)n1	IIIB	F227L + V106A	MTT	>7.353 µM
O=C(Cc1ccc(CC(=O)NCCCN2CCCCC2)cc1)NCCCN1CCCCC1	-	-	MTT	>282 µM
CO[P@](=O)(c1cc(C)cc(/C=C/C#N)c1)c1c(C(N)=O)[nH]c2ccc(Cl)cc12	NL4-3	-	-	0.0017 µM
CC1(C)C=Cc2c(ccc(-c3coc4cc(O)cc(O)c4c3=O)c2O)O1	IIIB	-	MTT	>20 µg/mL